Experimental data: PubChem BioAssay AID624099 (ICCB-Longwood, 2012)

- Aim: 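Host factors E2 relies on to silence an HPV18 LCR reporter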 (primary screen)
- System: human C33A cervical carcinoma cells (HPV-negative) stably expressing BPV1 E2 and an HPV18 LCR luciferase reporter
- Knock-down reagent: siRNA pool against human genes, 40 nM
- Timing: 72 h
- Read-out: 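Per-well luciferase luminescence, z-scored on each plate against the plate mean and SD with control wells left out, then averaged across three replicate plates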
- Reading the numbers: mean z-score and z-score: higher = stronger reporter signal, weaker E2 silencing
- Active means: 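Mean z ≥ 2 together with z ≥ 2 in two or more of the three replicates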
Shown is one part, drawn at random, of about 21,000 reagents. 497 of all reagents (2.4%) count as active. 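Higher z means weaker E2 silencing; only reporter increases were scored, and knock-downs that hurt cell survival may mask genuine repressor factors.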 Reagent sequences are not shown.

| gene knocked down | PubChem SID | mean z-score | z-score, replicate A | z-score, replicate B | z-score, replicate C | Call |
| --- | --- | --- | --- | --- | --- | --- |
| APEH (GeneID 327) | SID134311212 | -0.17 | -0.03 | -0.48 | 0 | inactive |
| NUS1P1 (GeneID 729148) | SID134329130 | -0.49 | -0.43 | -0.74 | -0.3 | inactive |
| ZNF75D (GeneID 7626) | SID134317043 | 0.34 | 0.66 | 0.19 | 0.17 | inactive |
| PAK6 (GeneID 56924) | SID56478794 | -0.96 | -1.01 | -0.92 | -0.95 | inactive |
| DPH2 (GeneID 1802) | SID134315606 | 1.96 | 1.93 | 2.08 | 1.87 | inactive |
| TASOR (GeneID 23272) | SID134324027 | 0.77 | 0.9 | 0.6 | 0.8 | inactive |
| EMILIN3 (GeneID 90187) | SID134325983 | 1.08 | 0.8 | 1.33 | 1.1 | inactive |
| FAM89B (GeneID 23625) | SID134320915 | 1.2 | 1.21 | 1.04 | 1.35 | inactive |
| ID4 (GeneID 3400) | SID134313755 | 0.56 | 0.73 | 0.28 | 0.66 | inactive |
| KCNK15 (GeneID 60598) | SID134311676 | 1.08 | 0.97 | 1.05 | 1.23 | inactive |
| LOC388622 (retired record) (GeneID 388622) | SID134326975 | -0.87 | -0.92 | -1 | -0.69 | inactive |
| LOC391859 (retired record) (GeneID 391859) | SID134327611 | 0.22 | 0 | 0.41 | 0.26 | inactive |
| MSRB3 (GeneID 253827) | SID134325012 | -0.13 | -0.19 | -0.09 | -0.11 | inactive |
| ABRAXAS2 (GeneID 23172) | SID134320153 | 0.54 | 0.22 | 0.89 | 0.52 | inactive |
| ICOSLG (GeneID 23308) | SID134312752 | -0.85 | -1.01 | -0.81 | -0.74 | inactive |
| PHACTR2-AS1 (GeneID 285740) | SID134327632 | -2.55 | -1.99 | -2.36 | -3.28 | inactive |
| GPRASP3 (GeneID 80823) | SID134326164 | 0 | 0.24 | -0.16 | -0.09 | inactive |
| RNF34 (GeneID 80196) | SID134312195 | -0.07 | 0.1 | -0.1 | -0.2 | inactive |
| ZBTB20 (GeneID 26137) | SID134324219 | -1.55 | -1.63 | -1.36 | -1.65 | inactive |
| RPS2P32 (GeneID 256355) | SID134327743 | 1.69 | 1.12 | 1.84 | 2.11 | inactive |
| ZNF780B (GeneID 163131) | SID134325813 | -1 | -1.17 | -0.97 | -0.85 | inactive |
| OR1F2P (GeneID 26184) | SID134328681 | -1.13 | -1.25 | -1.2 | -0.95 | inactive |
| HSPA8P8 (GeneID 100287551) | SID134327737 | 0.48 | 0.43 | 0.21 | 0.81 | inactive |
| HSPA8P8 (GeneID 100287551) | SID134327833 | -0.01 | 0.02 | 0.05 | -0.1 | inactive |
| ZNF98 (GeneID 148198) | SID134325912 | -1.01 | -0.89 | -1.12 | -1.02 | inactive |
| RSPO4 (GeneID 343637) | SID134326010 | 0.02 | 0.23 | -0.11 | -0.06 | inactive |
| OR2F1 (GeneID 26211) | SID134323919 | -0.23 | -0.37 | 0.08 | -0.4 | inactive |
| SDC1 (GeneID 6382) | SID134315117 | 0.06 | -0.53 | 0.2 | 0.51 | inactive |
| TBC1D5 (GeneID 9779) | SID134324420 | 0.38 | 0.2 | 0.37 | 0.58 | inactive |
| LOC388496 (retired record) (GeneID 388496) | SID134328961 | -0.17 | 0.11 | -0.1 | -0.51 | inactive |
| CACNB1 (GeneID 782) | SID134314114 | 2.58 | 2.33 | 2.87 | 2.53 | active |
| H3C10 (GeneID 8357) | SID134317933 | -1.12 | -0.95 | -1.1 | -1.31 | inactive |
| TRIM51 (GeneID 84767) | SID134314723 | -1.2 | -1.25 | -1.03 | -1.32 | inactive |
| RESP18 (GeneID 389075) | SID134327274 | -2.76 | -2.88 | -2.19 | -3.21 | inactive |
| SSU72L5 (GeneID 196120) | SID134326654 | 0.86 | 1.07 | 0.81 | 0.68 | inactive |
| FAM230I (GeneID 388882) | SID134329091 | 0.06 | -0.18 | 0.5 | -0.15 | inactive |
| GSDME (GeneID 1687) | SID134316160 | 0 | 0.15 | 0.02 | -0.17 | inactive |
| C9orf72 (GeneID 203228) | SID134317570 | 0.79 | 0.7 | 0.78 | 0.89 | inactive |
| VSIG1 (GeneID 340547) | SID134322732 | -0.31 | -0.21 | -0.2 | -0.51 | inactive |

3 entries from above, arranged by “z-score, replicate C”, highest first:
| gene knocked down | PubChem SID | mean z-score | z-score, replicate A | z-score, replicate B | z-score, replicate C | Call |
| --- | --- | --- | --- | --- | --- | --- |
| SSU72L5 (GeneID 196120) | SID134326654 | 0.86 | 1.07 | 0.81 | 0.68 | inactive |
| FAM230I (GeneID 388882) | SID134329091 | 0.06 | -0.18 | 0.5 | -0.15 | inactive |
| GSDME (GeneID 1687) | SID134316160 | 0 | 0.15 | 0.02 | -0.17 | inactive |
